The assay concerns 96 nts fragment of HIV-1 RNA. Put plainly: RNA cleavage assay, non-complementary 96 nts fragment of HIV-1 RNA. The note with it: HIV-1 RNA 1 µM, conjugate 30 µM, 37 °C.

Turning to `Cc1cn([C@H]2C[C@H](OP(=O)(O)OC[C@H]3O[C@@H](n4ccc(N)nc4=O)C[C@@H]3OP(=O)(O)OC[C@H]3O[C@@H](n4cnc5c(N)ncnc54)C[C@@H]3OP(=O)(O)OC[C@H]3O[C@@H](n4cnc5c(N)ncnc54)C[C@@H]3OP(=O)(O)OCCOCCOCCOCCOP(=O)(O)OCCOCCOCCOCCOP(=O)(O)OC[C@H]3O[C@@H](n4cnc5c(N)ncnc54)C[C@@H]3OP(=O)(O)OC[C@H]3O[C@@H](n4cnc5c(=O)[nH]c(N)nc54)C[C@@H]3OP(=O)(O)OC[C@H]3O[C@@H](n4cc(C)c(=O)[nH]c4=O)C[C@@H]3OP(=O)(O)OC[C@H]3O[C@@H](n4ccc(N)nc4=O)C[C@@H]3OP(=O)(O)OC[C@H]3O[C@@H](n4cc(C)c(=O)[nH]c4=O)C[C@@H]3OP(=O)(O)OC[C@H]3O[C@@H](n4cnc5c(=O)[nH]c(N)nc54)C[C@@H]3OP(=O)(O)OC[C@H]3O[C@@H](n4cnc5c(N)ncnc54)C[C@@H]3OP(=O)(O)OC[C@H]3O[C@@H](n4cc(C)c(=O)[nH]c4=O)C[C@@H]3OP(=O)(O)OC[C@H]3O[C@@H](n4cnc5c(N)ncnc54)C[C@@H]3OP(=O)(O)OC[C@H]3O[C@@H](n4cnc5c(N)ncnc54)C[C@@H]3OP(=O)(O)OC[C@H]3O[C@@H](n4cnc5c(=O)[nH]c(N)nc54)C[C@@H]3OP(=O)(O)OC[C@H]3O[C@@H](n4ccc(N)nc4=O)C[C@@H]3OP(=O)(O)OC[C@H]3O[C@@H](n4cc(C)c(=O)[nH]c4=O)C[C@@H]3OP(=O)(O)OC[C@H]3O[C@@H](n4cnc5c(N)ncnc54)C[C@@H]3OP(=O)(O)OC[C@H]3O[C@@H](n4ccc(N)nc4=O)C[C@@H]3OP(=O)(O)OC[C@H]3O[C@@H](n4cnc5c(N)ncnc54)C[C@@H]3OP(=O)(O)OC[C@H]3O[C@@H](n4cnc5c(N)ncnc54)C[C@@H]3OP(=O)(O)OC[C@H]3O[C@@H](n4cnc5c(=O)[nH]c(N)nc54)C[C@@H]3OP(=O)(O)OC[C@H]3O[C@@H](n4cc(C)c(=O)[nH]c4=O)C[C@@H]3OP(=O)(O)OC[C@H]3O[C@@H](n4ccc(N)nc4=O)C[C@@H]3OP(=O)(O)OC[C@H]3O[C@@H](n4cnc5c(N)ncnc54)C[C@@H]3OP(=O)(O)OC[C@H]3O[C@@H](n4cnc5c(=O)[nH]c(N)nc54)C[C@@H]3OP(=O)(O)OC[C@H]3O[C@@H](n4ccc(N)nc4=O)C[C@@H]3OP(=O)(O)OC[C@H]3O[C@@H](n4cnc5c(=O)[nH]c(N)nc54)C[C@@H]3OP(=O)(O)OC[C@H]3O[C@@H](n4cnc5c(N)ncnc54)C[C@@H]3OP(=O)(O)OC[C@H]3O[C@@H](n4cnc5c(N)ncnc54)C[C@@H]3OP(=O)(O)OC[C@H]3O[C@@H](n4cnc5c(N)ncnc54)C[C@@H]3OP(=O)(O)OC[C@H]3O[C@@H](n4cnc5c(=O)[nH]c(N)nc54)C[C@@H]3OP(=O)(O)OC[C@H]3O[C@@H](n4ccc(N)nc4=O)C[C@@H]3OP(=O)(O)OC[C@H]3O[C@@H](n4cc(C)c(=O)[nH]c4=O)C[C@@H]3OP(=O)(O)OC[C@H]3O[C@@H](n4cnc5c(=O)[nH]c(N)nc54)C[C@@H]3OP(=O)(O)OC[C@H]3O[C@@H](n4cnc5c(N)ncnc54)C[C@@H]3OP(=O)(O)OC[C@H]3O[C@@H](n4ccc(N)nc4=O)C[C@@H]3OP(=O)(O)OC[C@H]3O[C@@H](n4cc(C)c(=O)[nH]c4=O)C[C@@H]3OP(=O)(O)OC[C@H]3O[C@@H](n4cc(C)c(=O)[nH]c4=O)C[C@@H]3OP(=O)(O)OC[C@H]3O[C@@H](n4cnc5c(=O)[nH]c(N)nc54)C[C@@H]3O)[C@@H](COP(=O)(O)N[C@@H](CC(C)C)C(=O)N[C@@H](CCCNC(=N)N)C(=O)N[C@@H](CC(C)C)C(=O)N[C@@H](CCCNC(=N)N)C(=O)N[C@@H](CC(C)C)C(=O)N[C@@H](CCCNC(=N)N)C(=O)N[C@@H](CC(C)C)C(=O)N[C@@H](CCCNC(=N)N)C(=O)NCC(N)=O)O2)c(=O)[nH]c1=O`, the “cleavage specificity on HIV-1 RNA” value is given as “predominantly Pyr-A cleavage specificity”. Besides, the “HIV-1 RNA cleaved at 24 h” value (24 h, 50 mM Tris-HCl pH 7.0, 0.2 M KCl, 1 mM EDTA) stood at 85%.

The values are drawn from publication PMC6177439, “Peptide-oligonucleotide conjugates exhibiting pyrimidine-X cleavage specificity efficiently silence miRNA target acting synergistically with RNase H” (Scientific Reports, 2018).
